Results on one substance are retold here after US20140154248A1.

The target in this assay is human mesothelin (human) (UniProt Q13421). The experiment in a line: cell-based or functional assay.

On to SS1-LR, for which the EC50 (ng/ml), cytotoxicity WST-8, A431/K5 cells was determined as 0.72 ng/mL; the EC50 (ng/ml), cytotoxicity WST-8, A1847 cells is 4.7 ng/mL; the EC50 (ng/ml), cytotoxicity WST-8, HAY cells was determined as 1.05 ng/mL; the EC50 (ng/ml), cytotoxicity WST-8, KB31 cells was found to be 9.34 ng/mL. This substance also displayed an EC50 (ng/ml), cytotoxicity WST-8, L55 cells of 4.66 ng/mL; an EC50 (ng/ml), cytotoxicity WST-8, M30 cells of 3.23 ng/mL; an EC50 (ng/ml), cytotoxicity WST-8, NCI-H322M cells of 1.8 ng/mL; an EC50 (ng/ml), cytotoxicity WST-8, OVACR-8 cells of 4.13 ng/mL. The Relative Activity (SS1-LR against SS1P), A431/K5 cells amounted to 0.24; the Relative Activity (SS1-LR against SS1P), A1847 cells amounted to 0.98; the Relative Activity (SS1-LR against SS1P), HAY cells turned out to be 4.56; the Relative Activity (SS1-LR against SS1P), KB31 cells is 0.05. This substance also gave a Relative Activity (SS1-LR against SS1P), L55 cells of 1.14; a Relative Activity (SS1-LR against SS1P), M30 cells of 0.79; a Relative Activity (SS1-LR against SS1P), NCI-H322M cells of 0.35; a Relative Activity (SS1-LR against SS1P), OVACR-8 cells of 0.34.
